SMILES strings stand for the structures. Some of the results follow.

The subject of the assay is A. baumannii ATCC 17978. Description: relative growth (fraction of control); higher = less inhibition. Conditions: 50 µM.
Compound `CC1OC(O[C@H]2/C=C/C=C/C=C/C=C/C=C/C=C/C=C/[C@H](C)[C@@H](O)[C@@H](C)[C@H](C)OC(=O)CC(O)CC(O)CCC(O)C(O)CC(O)C[C@]3(O)C[C@H](O)C(C(=O)O)C(C2)O3)C(O)[C@H](N)C1O` (some centres not stated) had a relative growth of 0.986. In the case of `COC(=O)CCc1ccc(OC)cc1O` it was 1.03.

These data come from published antibiotic growth screens (doi:10.1038/s41589-023-01349-8).
